Compound potency records, mixed from different reports. Data source: NIAID ChemDB in PubChem.

Common to all: whole-cell or culture tests; organism: Hepatitis C virus

a–b is a range or a potency band. An empty or dashed field is not shown. Rows are shuffled and stem from different studies. ECn is the concentration giving n% inhibition of infection, replication or growth.

smiles	conditions	endpoint	strain or isolate	changes	cells	read by	result
Cn1c(C(=O)O)cc2cc(NC(=O)C3(NC(=O)c4ccc5c(c4)nc(-c4ccoc4)n5C4CCCCC4)CCCC3)ccc21	-	EC50	-	-	Huh7	-	≤5 µM
COc1cc(Cc2cnc(/N=C3\C(=O)N(CN4CCN(C)CC4)c4ccc(F)cc43)nc2N)cc(OC)c1OC	-	EC50	-	-	Huh7	-	<50 µg/mL
Cc1ccc(C(=O)NC2CC2)cc1-c1ccc(C(=O)Nc2ccc(CN3CCS(=O)(=O)CC3)cc2)cc1	-	EC50	1b	-	-	replicon	2.6 µM
CS(=O)(=O)Nc1ccc2c(c1)S(=O)(=O)N=C(c1c(O)c3ccccc3n(NC3CCC3)c1=O)N2	-	EC50	1a	-	Huh7	replicon	0.003 µM
CCNC(=O)c1c(-c2ccc(F)cc2)oc2cc(-c3c(C)noc3C)c(OC)cc12	-	EC50	-	-	Huh7	replicon	<1 µM
COc1cccc(N2CCN(CN3C(=O)/C(=N\c4ncc(Cc5cc(OC)c(OC)c(OC)c5)c(N)n4)c4cc(F)ccc43)CC2)c1	-	EC50	-	-	Huh7	-	<50 µg/mL
C=CC1=C(C)C2=NC1=CC1=NC(=CC3=C(C)C4=C(O)CC(=C5NC(=C2)[C@@H](C)[C@@H]5CCC(=O)O)C4=N3)C(CC)=C1C	-	EC50	J6/JFH1-P47	-	Huh7.5	-	0.2 µg/mL
CC(C)(C)C(=O)OCOP(=O)(CC[C@H]1O[C@@H](n2cnc3c(N)ncnc32)[C@](C)(F)[C@@H]1O)OCOC(=O)C(C)(C)C	-	EC90	-	-	Huh7	PCR	>10 µM
CC(C)=CCc1c(O)cc2oc3cc(O)c(O)c(CC=C(C)C)c3c(=O)c2c1O	-	EC50	J6/JFH-1 (gt 2a)	-	Huh7.5	luciferase	2.7 µM
COc1cc(C(=O)N2[C@@H](c3nccs3)[C@@H](c3cnccn3)C[C@@]2(CCS)C(=O)O)ccc1C(C)(C)C	-	EC50	genotype 1b	-	Huh7	replicon	0.1–10 µM
C[C@@H](NC(=O)OCc1ccccc1)C(=O)Nc1ccc(C2SC(=Nc3cccc(F)c3)N(Cc3ccco3)C2=O)cc1	-	EC50	-	-	-	-	1 µM
CC(C)(C)C(=O)OCOP(=O)(CC[C@H]1O[C@@H](n2ccc(N)nc2=O)[C@](C)(F)[C@@H]1O)OCOC(=O)C(C)(C)C	-	EC90	-	-	Huh7	PCR	>10 µM
C=CC1C[C@@]1(NC(=O)[C@@H]1C[C@@H](Oc2cc(-c3ccccc3)nc3cc(OC)ccc23)CN1C(=O)[C@@H](NC(=O)N(C)C(C)(C)C)C(C)(C)C)C(=O)NS(=O)(=O)C1(CC2CC2)CC1	-	EC50	1b	-	Huh7	replicon	0.05–0.5 µM
COc1cc(C(=O)N2[C@@H](c3ncc(C)s3)[C@@H](c3cnccn3)C[C@@]2(Cc2nccs2)C(=O)O)ccc1C(C)(C)C	-	EC50	Genotype 1A	-	Huh7	replicon	<10 µM
CN(C)[C@@H](C(=O)N1CCC[C@H]1C(=O)Cc1ccc(-c2ccc(NC(=O)[C@@H]3CCCN3C(=O)[C@@H](c3ccccc3)N(C)C)cc2)cc1)c1ccccc1	-	EC50	GT2a	-	Huh7.5.1	luciferase / reporter gene	0.0023 µM
Cn1cccc1-c1nc2cc(C(=O)NC3(C(=O)Nc4ccc(/C=C/C(=O)O)cc4)CCCC3)ccc2n1C1CCCCC1	-	EC50	-	-	Huh7	-	≤5 µM
CNC(=O)c1c(-c2ccc(F)cc2)oc2cc(N(C(C)=O)S(C)(=O)=O)c(OC)cc12	-	EC50	-	-	Huh7	replicon	<1 µM
Cc1ccc(C(=O)Nc2ccc(N3CCOCC3)cc2)cc1-c1ccc(C(=O)Nc2ccc(CN3CCOCC3)cc2)cc1	-	EC50	1b	-	-	replicon	2.78 µM
CNC(=O)c1c(-c2ccc(F)cc2)oc2cc(N(C)S(C)(=O)=O)c(OCC(C)O)cc12	-	EC50	-	-	Huh7	replicon	<1 µM
CCCC1(S(=O)(=O)NC(=O)[C@]2(NC(=O)[C@@H]3C[C@@H](Oc4cc(-c5ccccc5)nc5cc(OC)ccc45)CN3C(=O)[C@@H](NC(=O)OC(C)(C)C)C(C)(C)C)CC23CC3)CC1	-	EC50	1b	-	Huh7	replicon	0.5–5 µM
COc1cc(C(=O)N2[C@@H](c3nccs3)[C@@H](c3cnccn3)C[C@@]2(Cc2ccccn2)C(=O)O)ccc1C(C)(C)C	-	EC50	genotype 1b	-	Huh7	replicon	0.1–10 µM
CNC(=O)c1c(-c2ccc(F)cc2)oc2cc(N(CS(C)(=O)=O)OC)c(O)cc12	-	EC50	-	-	Huh7	replicon	<10 µM
Nc1nc(=O)n([C@@H]2O[C@H](CO)C[C@H]2O)cc1I	-	EC50	-	-	Huh7	-	30.2 µM
CCN(CC)[C@@H](C(=O)N1CCC[C@H]1C(=O)Cc1ccc(-c2ccc(NC(=O)[C@@H]3CCCN3C(=O)[C@@H](c3ccccc3)N(CC)CC)cc2)cc1)c1ccccc1	-	EC50	GT1b	-	Huh7.5.1	luciferase	0.00027 µM
C[C@H]1CCC[C@H](C)C1n1c(-c2cccs2)nc2cc(C(=O)NC3(C(=O)Nc4ccc(/C=C/C(=O)O)cc4)CCCC3)ccc21	-	EC50	-	-	Huh7	-	≤5 µM
CC(c1cc(-c2ccc(C(F)(F)F)cc2C(F)(F)F)no1)[n+]1cc2[nH]c(-c3cccc(F)c3F)nc2cn1	-	EC50	genotype 1b	-	Huh-luc/neo-ET	replicon	0.077 µM
CCCS(=O)(=O)N1CCN(Cc2ccc(NC(=O)c3ccc(-c4cc(C(=O)Nc5ccc(N6CCOCC6)cc5)ccc4C)cc3)cc2)CC1	-	EC50	1b	-	-	replicon	0.19 µM
COc1ccc2c(c1)C1CC1(C(=O)N1[C@@H]3C[C@H]1CN(C(=O)N(C)C)C3)Cn1c-2c(C2CCCCC2)c2ccc(C(=O)NS(=O)(=O)N(C)C)cc21	-	EC50	1b	-	-	replicon	0.001–0.5 µM
CC(=O)NC1=NN(CCO)c2ncnc3c2c1cn3C1(C)O[C@H](CO)[C@@H](O)[C@H]1O	-	EC50	-	-	Huh7	-	100 µM
Fc1cccc(-c2nc3cn[n+](Cc4cc(-c5ccc(C(F)(F)F)cc5)no4)cc3[nH]2)c1F	-	EC50	Genotype 1A	-	Huh-luc/neo-ET	replicon	0.065 µM
C[C@@]1(F)[C@H](O)[C@@H](CO)O[C@H]1n1ccc(N)nc1=O	-	EC90	WILD TYPE	-	-	replicon / PCR	4.9 µM
COc1ccc(NC(=O)C2CC2)cc1-c1ccc(C(=O)Nc2ccc(CN3CCS(=O)(=O)CC3)cc2)cc1	-	EC50	1b	-	-	replicon	0.7 µM
COc1ccc2c(O[C@@H]3C[C@H]4C(=O)N[C@]5(C(=O)O)C[C@H]5/C=C\CCCCC[C@H](NC(=O)OC5CCCC5)C(=O)N4C3)cc(-c3csc(NC(C)C)n3)nc2c1	-	EC50	1b	-	-	luciferase / reporter gene	0.00933 µM
O=C(NC1(C(=O)Nc2ccc(-c3ccc(C(=O)O)o3)cc2)CCCC1)c1ccc2c(c1)nc(-c1ccoc1)n2C1CCCCC1	-	EC50	-	-	Huh7	-	≤5 µM
COc1ccc2c(c1)C1CC1(C(=O)N1[C@@H]3C[C@H]1CN(C(C)=O)C3)Cn1c-2c(C2CCCCC2)c2ccc(C(=O)NS(=O)(=O)N(C)C)cc21	-	EC50	1b	-	-	replicon	0.001–0.5 µM
CNC(=O)c1c(-c2ccc(F)cc2)oc2cc(CN(C)S(C)(=O)=O)c(OC(C)C)cc12	-	EC50	-	-	Huh7	replicon	<10 µM
CN(C)C(=O)CN1CCn2c(c(C3CCCCC3)c3ccc(C(=O)O)cc32)-c2ccccc21	10% FBS	EC50	-	-	Huh7	replicon	0.21 µM
CCCOc1ccc(-c2cc(C(C(=O)OCCOCCO)[n+]3cc4[nH]c(-c5cccc(F)c5F)nc4cn3)on2)c(C(F)(F)F)c1	-	EC50	genotype 1b	-	Huh-luc/neo-ET	replicon	0.00337 µM
Nc1ccn([C@@H]2O[C@H](CO)[C@@H](O)[C@H]2F)c(=O)n1	-	EC50	-	-	Huh7	replicon	<5 µM
CC1(n2cc3c4c(ncnc42)N(CCO)N=C3N)O[C@H](CO)[C@@H](O)[C@H]1O	-	EC50	-	-	Huh7	-	200 µM
C=C[C@H]1C[C@@]1(NC(=O)[C@@H]1C[C@@H](Oc2cc(-c3ccccc3)nc3cc(OC)ccc23)CN1C(=O)[C@@H](NC(=O)OC(C)(C)C)C(C)(C)C)C(=O)NS(=O)(=O)C1(Cc2ccccc2F)CC1	-	EC50	1b	-	Huh7	replicon	0.05–0.5 µM
COc1ccc2c(c1)[C@H]1C[C@@]1(C(=O)N1[C@@H]3C[C@H]1CN(C)C3)Cn1c-2c(C2CCCCC2)c2ccc(C(=O)NS(=O)(=O)N(C)C)cc21	-	EC50	1b	-	-	replicon	0.001–0.5 µM
C=CC1C[C@@]1(NC(=O)[C@@H]1C[C@@H](Oc2cc(-c3ccccc3)nc3cc(OC)ccc23)CN1C(=O)[C@@H](NC(=O)Oc1ccc(F)cc1)C(C)(C)C)C(=O)NS(=O)(=O)C1(Cc2ccccc2)CC1	-	EC50	1b	-	Huh7	replicon	0.5–5 µM
CN(C(=O)c1ccncc1)c1cc(C(F)(F)F)ccc1N1CCCCC1	-	EC50	1b	-	Huh7/Rep-Feo1b	luciferase / replicon	>100 µM
COC(=O)N[C@@H](C)C(=O)N1CCC[C@H]1C(=O)Cc1ccc(-c2ccc(NC(=O)[C@@H]3CCCN3C(=O)[C@H](C)NC(=O)OC)cc2)cc1	-	EC50	GT2a	-	Huh7.5.1	luciferase / reporter gene	>1 µM
O=C(N[C@@H](C(=O)N1CCC[C@H]1c1ncc(-c2ccc(-c3ccc(-c4cnc([C@@H]5CCCN5C(=O)[C@H](NC(=O)C5CC5)c5ccccc5)s4)cc3)cc2)s1)c1ccccc1)C1CC1	-	EC50	genotype 2a	Y93H	Huh7.5	luciferase / reporter gene	0.76 µM
CNC(=O)c1c(-c2ccc(F)cc2)oc2cc(S(=O)(=O)N3CCC(O)CC3)c(OC(C)C)cc12	-	EC50	-	-	Huh7	replicon	<1 µM
C=CC1C[C@@]1(NC(=O)[C@@H]1C[C@@H](Oc2cc(-c3ccccc3)nc3cc(OC)ccc23)CN1C(=O)[C@@H](NC(=O)OC1(C(=O)OCC)CC1)C(C)(C)C)C(=O)NS(=O)(=O)C1(Cc2ccccc2)CC1	-	EC50	1b	-	Huh7	replicon	0.05–0.5 µM
COc1cc(Cc2cnc(/N=C3\C(=O)N(CN4CCN(c5ccccc5)CC4)c4ccc(F)cc43)nc2N)cc(OC)c1OC	-	EC50	-	-	Huh7	-	<50 µg/mL
C=CCC1(S(=O)(=O)NC(=O)[C@]2(NC(=O)[C@@H]3C[C@@H](Oc4ccnc5cc(Cl)ccc45)CN3C(=O)[C@@H](NC(=O)OC3CCCC3)C(C)(C)C)C[C@@H]2C=C)CC1	-	EC50	1b	-	Huh7	replicon	0.05–0.5 µM
CCOc1ccc2nc(NC(=O)Nc3cccc(OC)c3)sc2c1	-	EC50	-	-	Huh7.5	PCR	1.7 µM
C=CC1C[C@@]1(NC(=O)[C@@H]1C[C@@H](Oc2cc(-c3ccccc3)nc3cc(OC)ccc23)CN1C(=O)[C@@H](NC(=O)OCCOC)C(C)(C)C)C(=O)NS(=O)(=O)C1(Cc2ccccc2)CC1	-	EC50	1b	-	Huh7	replicon	0.5–5 µM
COc1c(C(C)(C)C)cc(-c2ccc[nH]c2=O)c2ncc(-c3ccc(NS(C)(=O)=O)cc3)cc12	40% human serum	EC90	GT-1b Con1	-	Huh7	replicon	0.029 µM
CC(C)CCn1c(=O)c(C2=NS(=O)(=O)c3ccccc3N2)c(O)c2ccccc21	-	EC50	1b	-	-	luciferase / reporter gene	0.0035 µM
COc1cc(C(=O)N2[C@@H](c3nccs3)[C@@H](c3cnccn3)C[C@@]2(Cc2ccsn2)C(=O)O)ccc1C(C)(C)C	-	EC50	genotype 1b	-	Huh7	replicon	<0.1 µM
COC(=O)NC[C@H](C(=O)N1CCCC1c1ncc(-c2ccc(-c3ccc(-c4cnc(C5CCCN5C(=O)[C@@H](NC(=O)OC)C(C)C)[nH]4)cc3)cc2)[nH]1)C(C)C	-	EC50	HCV4a-23	-	-	-	0.000013 µM
OCC1CCC(c2ccc3ncnc(Nc4ccc(C5CCOCC5)cc4)c3c2)O1	-	EC50	2a	-	JFH-A4	-	0.75 µM
Nc1nc(=O)n([C@H]2O[C@@H](CO)C[C@@H]2O)cc1F	-	EC50	-	-	Huh7	-	42 µM
Cc1cc2c(cc1F)c(C#N)c(-c1ccc(S(=O)(=O)N[C@@H](C)C(F)(F)F)cn1)n2-c1ncccn1	-	EC90	1b	-	-	PCR	0.025 µM
CNC(=O)c1c(-c2ccc(F)cc2)oc2cc(C(=O)CO)c(OC)cc12	-	EC50	-	-	Huh7	replicon	<10 µM
COc1ccc2c(c1)[C@@H]1C[C@]1(C(=O)N1C3CCC1CN(C)C3)Cn1c-2c(C2CCCCC2)c2ccc(C(=O)O)cc21	-	EC50	1b	-	-	replicon	0.001–0.5 µM
CCCCCOc1ccc(NC(=S)NC(=O)c2cccnc2)cc1C(F)(F)F	-	EC50	1b	-	-	luciferase / reporter gene	0.1168 µM
Fc1cccc(-c2nc3cnn(Cc4ccc(-c5ccc(C(F)(F)F)cc5C(F)(F)F)cn4)cc-3n2)c1F	-	EC50	genotype 1b	-	Huh-luc/neo-ET	replicon	0.036 µM
COc1cc(Cc2cnc(/N=C3\C(=O)N(CN4CCN(c5cccc(Cl)c5)CC4)c4ccc(F)cc43)nc2N)cc(OC)c1OC	-	EC50	-	-	Huh7	-	<50 µg/mL
C=C[C@H]1C[C@@]1(NC(=O)[C@@H]1C[C@@H](Oc2cc(-c3ccccc3)nc3cc(OC)ccc23)CN1C(=O)[C@@H](NC(=O)OCC1CC1)C(C)(C)C)C(=O)NS(=O)(=O)C1(Cc2ccccc2)CC1	-	EC50	1b	-	Huh7	replicon	0.05–0.5 µM